A mixed list of measured activities; the numbers were collected in NIAID ChemDB.

Common to all: whole-cell or culture tests; species: HIV-1; read-out: EC50

Blank or dashed fields: not listed here. ECn: concentration that inhibits the pathogen or its effect by n%. Rows are shuffled and stem from different studies.

smiles	strain	method	cell line	mutations	setting	value
Cc1cc(CNC(=O)c2nc3n(c(=O)c2O)[C@H](C)COC[C@@H]3N(C)C(=O)C(=O)N(C)C)ccc1F		single cycle	HeLa P4-2	G140S/Q148H		0.011 µM
CNC(=O)c1c(O)c2ncc(Cc3ccc(F)cc3)c3c2n(c1=O)C[C@](C)(C(=O)NCC(C)(C)C#N)O3	IIIB	ATP / luminescence	MT-2			0.029 µM
CO[C@]1(C)CC[C@@H](N(C)C(=O)C(=O)N(C)C)c2nc(C(=O)NCc3ccc(F)c(C)c3)c(O)c(=O)n2C1		single cycle	HeLa P4-2	E92Q		0.001 µM
CNC(=O)c1c(O)c2ncc(Cc3ccc(F)cc3)c3c2n(c1=O)C[C@H](CN1CCCC1)O3	IIIB	ATP / luminescence	MT-2			0.022 µM
CC(C)C1=C2[C@H]3CC[C@@H]4[C@@]5(C)CC[C@H](OC(=O)[C@H]6C[C@@H](C(=O)O)C6(C)C)C(C)(C)[C@@H]5CC[C@@]4(C)[C@]3(C)CC[C@@]2(CCNC(=O)c2nc3ccccc3[nH]2)CC1=O	92HT599	p24 / ELISA	MT-2			<1 µM
Nc1nc(NC2CC2)c2ncn([C@H]3C=C[C@@H](CO)C3)c2n1	Clinical isolate	recombinant virus assay	MT-2	M41L/M184V/L210W/T215Y		0.5456 µM
CCN(C(=O)C(=O)N(C)C)[C@@H]1CC[C@H](OC)Cn2c1nc(C(=O)NCc1ccc(F)cc1)c(O)c2=O		single cycle	HeLa P4-2	Q148R		0.001 µM
COP(=O)(c1cc(C)cc(CCC#N)c1)c1c(C(N)=O)[nH]c2ccc(Cl)c(F)c12	BH10	cytopathic effect	MT-4	K103N		0.0003 µM
CCOC(=O)c1cncc(C(=C2CCN(C(=O)C(=O)c3c[nH]c4c(-n5cnc(C)n5)ncc(OC)c34)CC2)c2ccccc2)c1		luciferase	HeLa			<1 µM
C[C@@]12CCCCC[C@]1(O)Cn1cc(C(=O)NCc3ccc(F)cc3F)c(=O)c(O)c1C2=O	NL4-3	GFP	MT-4		100% human serum	0.06 µM
CC[C@H]1COC[C@@H](N(C)C(=O)C(=O)N(C)C)c2nc(C(=O)NCc3ccc(F)cc3)c(O)c(=O)n21		single cycle	HeLa P4-2	Q148R		0.001 µM
CC(C)C1=C2[C@H]3CC[C@@H]4[C@@]5(C)CC[C@H](OC(=O)[C@H]6C[C@@H](C(=O)O)C6(C)C)C(C)(C)[C@@H]5CC[C@@]4(C)[C@]3(C)CC[C@@]2(CCNC(=O)Cc2ccc(Cl)cc2)CC1=O	92HT599	p24 / ELISA	MT-2			<1 µM
CC1(C)CC=C(c2cn(-c3nccc(C(=O)NC4CCC(N5CC6CCC(C5)O6)CC4)n3)c3ccc(F)c([C@H](OC(C)(C)C)C(=O)O)c23)CC1	NL4-3	luminescence	MT-4	Q148R		0.0046 µM
COc1cnc(-c2cnccn2)c2[nH]cc(C(=O)C(=O)N3CCC(=C(c4ccccc4)c4nccs4)CC3)c12		luciferase	HeLa			<1 µM
C#C[C@@]1(CO)C=C[C@H](n2cc(C)c(=O)[nH]c2=O)O1	Clinical isolate	recombinant virus assay	MT-2	D67N/T69N/K70R/A98G/M184V/G190S/T215F/K219Q		4.199 µM
Cc1cc(CNC(=O)c2nc3n(c(=O)c2O)[C@H](C)COC[C@H]3N(C)C(=O)C(=O)N(C)C)ccc1F		single cycle	HeLa P4-2	Y143R		0.002 µM
CNC(=O)c1c(O)c2ncc(Cc3ccc(F)cc3)c3c2n(c1=O)C[C@](C)(C(=O)NCCN(C)C)O3	IIIB	ATP / luminescence	MT-2			0.225 µM
C[C@]12CCCCC[C@@]1(O)Cn1cc(C(=O)NCc3cccc(Cl)c3F)c(=O)c(O)c1C2=O	NL4-3	GFP	MT-4		100% human serum	0.046 µM
Cc1cc(CNC(=O)c2nc3n(c(=O)c2O)[C@@H](C)COC[C@H]3N(C)C(=O)C(=O)N(C)C)ccc1F		single cycle	HeLa P4-2	Q148R		0.002 µM
COc1ncc(OC)c2c(C(=O)C(=O)N3CCC(=C(c4ccccc4)c4ccc(C#N)cc4)CC3)c[nH]c12		luciferase	HeLa			<1 µM
N#Cc1cc(Cl)cc(Oc2c(Br)ccc(CC(=O)Nc3ccc(S(N)(=O)=O)cc3Cl)c2F)c1			MT-4	L100I/K103N		0.0009 µM
COCCNC(=O)c1c(O)c2ncc(Cc3ccc(F)cc3)c3c2n(c1=O)C[C@@H](C(=O)NC(C)(C)CO)O3	IIIB	ATP / luminescence	MT-2			0.012 µM
CC(C)C1=C2[C@H]3CC[C@@H]4[C@@]5(C)CC[C@H](OC(=O)[C@H]6C[C@@H](C(=O)O)C6(C)C)C(C)(C)[C@@H]5CC[C@@]4(C)[C@]3(C)CC[C@@]2([C@@H](O)CNC(=O)c2ccc(Cl)cn2)CC1=O	92HT599	p24 / ELISA	MT-2			<1 µM
Nc1ncnc2c1ncn2[C@H]1C=C[C@@H](CO)[C@@H]1CO	MN	XTT	MT-4			4.6 µg/mL
COCCNC(=O)c1c(O)c2ncc(Cc3ccc(F)cc3)c3c2n(c1=O)C[C@H](CN1CCCC1)O3	IIIB	ATP / luminescence	MT-2			0.021 µM
N#CC(=C1CCN(C(=O)C(=O)c2c[nH]c3c(Cl)ccnc23)CC1)c1ccccc1		luciferase	HeLa			<1 µM
COCC[C@]1(C)C(=O)c2c(O)c(=O)c(C(=O)NCc3ccc(F)cc3F)cn2C[C@@H]1OC	NL4-3	GFP	MT-4		0% human serum	0.0013 µM
COCCNC(=O)c1c(O)c2ncc(Cc3ccc(F)cc3)c3c2n(c1=O)C[C@](C)(C(=O)N1CCOCC1)O3	IIIB	ATP / luminescence	MT-2			0.0143 µM
CC(C)C1=C2[C@H]3CC[C@@H]4[C@@]5(C)CC[C@H](OC(=O)[C@H]6C[C@@H](C(=O)O)C6(C)C)C(C)(C)[C@@H]5CC[C@@]4(C)[C@]3(C)CC[C@@]2(CC(=O)NCC(F)(F)NC(=O)c2ccc(Cl)cc2)CC1=O	92HT599	p24 / ELISA	MT-2			<1 µM
Cc1cc(CNC(=O)c2nc3n(c(=O)c2O)CC(C)(C)CC[C@@H]3N(C)C(=O)C(=O)N(C)C)ccc1F		single cycle	HeLa P4-2	Y143R		0.001 µM
COCCOc1cc(Cl)ccc1C(=O)NC(C)(C)C(=O)NC[C@H](O)[C@@]12CC[C@]3(C)[C@H](CC[C@@H]4[C@@]5(C)CC[C@H](OC(=O)[C@H]6C[C@@H](C(=O)O)C6(C)C)C(C)(C)[C@@H]5CC[C@]43C)C1=C(C(C)C)C(=O)C2	92HT599	p24 / ELISA	MT-2			<1 µM
CN(CCCNC(=O)c1c(O)c2ncc(Cc3ccc(F)cc3)c3c2n(c1=O)CC(F)(F)CN3)CC(F)(F)F	IIIB	ATP / luminescence	MT-2			0.018 µM
COCCC[C@@]1(C)C(=O)c2c(O)c(=O)c(C(=O)NCc3c(F)cccc3F)cn2C[C@@H]1OC	NL4-3	GFP	MT-4		100% human serum	0.053 µM
COc1cnc(-n2ccnn2)c2[nH]cc(C(=O)C(=O)N3CCC(=C(c4ccccc4)c4nnc(C5CC5)o4)CC3)c12		luciferase	HeLa			<1 µM
[2H]C(NC(=O)c1ccc(Cl)cc1)(C(=O)NC[C@H](O)[C@@]12CC[C@]3(C)[C@H](CC[C@@H]4[C@@]5(C)CC[C@H](OC(=O)[C@H]6C[C@@H](C(=O)O)C6(C)C)C(C)(C)[C@@H]5CC[C@]43C)C1=C(C(C)C)C(=O)C2)C(C)O	92HT599	p24 / ELISA	MT-2			<1 µM
Cc1nc2ccccc2c(-c2cc(F)c3c(c2C)CCCO3)c1[C@H](OC(C)(C)C)C(=O)O	NL4-3	luminescence	MT-4	E92Q		0.017 µM
COc1cnc(-n2ccc(C)n2)c2[nH]cc(C(=O)C(=O)N3CCC(=C(c4ccccc4)c4cccc(F)c4)CC3)c12		luciferase	HeLa			<1 µM